Assay: Inhibition Frequency Index (IFI), promiscuity

| Compound | IFI |
| --- | --- |
| NCCNCc1ccc(-c2cc3ccncc3cc2OC2CCNCC2)s1 [Compound 12] | 3.8 |
| CNS(=O)(=O)c1cccc(Nc2ccnc(Nc3cccc(S(=O)(=O)NC)c3)n2)c1 [Compound 6] | 8.4 |
| COc1cccc(Nc2nc(-c3ccncc3)cc(N3CCN(C)CC3)n2)c1 [Compound 9] | 6.6 |
| Nc1ccc2c(-c3ccncc3)c(-c3ccc(Cl)c(O)c3)[nH]c2n1 [Compound 15] | 5.6 |
| CCn1cc(-c2ccncn2)c(-c2cccc(NS(=O)(=O)c3cc(F)ccc3F)c2)n1 [Compound 2] | 5.6 |
| COc1ccc(-c2c(-c3cccc(C(=O)N4CCN(C)CC4)c3)oc3ncnc(N)c23)cc1 [Compound 7] | 6.2 |
| O=C(c1cccc(OCc2cccnc2)c1)N1CCc2sccc2C1CN1CCCCC1 (stereo not drawn) [Compound 14] | 2.8 |
| COc1cc(CS(C)(=O)=O)ccc1Nc1nc(Nc2cc(F)ccc2C(N)=O)c2cc[nH]c2n1 [Compound 10] | 7.9 |
| CC(C)(CN)c1cc(-c2ccc(Cl)c(O)c2)c(-c2ccncc2)o1 [Compound 4] | 6.8 |
| Cc1ccc(S(C)(=O)=O)cc1Nc1nccc(-c2sc(CC(N)=O)nc2-c2ccccc2)n1 [Compound 3] | 16.4 |
| CCn1c(-c2nonc2N)nc2c(-c3ccccc3)ncc(CN(C)C3CCN(C)CC3)c21 [Compound 5] | 3.6 |
| Nc1nc(Nc2cccc3cnccc23)nn1C(=O)C1CCCCC1 [Compound 16] | 4.2 |
| O=C(N[C@@H](CO)c1ccccc1)c1ccc2cncc(-c3cn[nH]c3)c2n1 [Compound 11] | 5.7 |
| CNCCOc1cnc(-c2ccoc2C)c(-c2ccc3cnccc3c2)c1 [Compound 13] | 10.1 |
| COc1ccc(CCNC(=O)CSc2ncnc3[nH]ncc23)cc1OC [Compound 8] | 1.9 |

Source: paper PMC6504873, “High-throughput screening of the Plasmodium falciparum cGMP-dependent protein kinase identified a thiazole scaffold which kills erythrocytic and sexual stage parasites” (Scientific Reports, 2019)
